Like-named read-outs stand apart in the source and are kept apart here.

The test system of test [1] is A/chicken/Pennsylvania/22-012092-010/2022 (PA A37T). To be noted: read-out: Mean EC50 ± SD; HINT; MDCK-SIAT1 cells; chicken/PA-10/22, PA A37T.
In test [2] the test system is A/black vulture/Florida/22-012333-001/2022 (PA R185G). To be noted: read-out: Mean EC50 ± SD; HINT; MDCK-SIAT1 cells; vulture/FL-33/22, PA R185G.
Test [3] deals with A/bald eagle/Wyoming/22-013015-001/2022 (PA V44A). To be noted: read-out: Mean EC50 ± SD; HINT; MDCK-SIAT1 cells; eagle/WY/22, PA V44A.
The test system is the same in test [4]. To be noted: read-out: Mean EC50 ± SD; IRINA; MDCK-SIAT1 cells; eagle/WY/22, PA V44A.
The test system of test [5] is A/chicken/Pennsylvania/22-012092-006/2022 (PA A37T). To be noted: read-out: Mean EC50 ± SD; HINT; MDCK-SIAT1 cells; chicken/PA-6/22, PA A37T.
Test [6] has as its system A/fox/Michigan/22-014536-004/2022 (PA M61I, A85T). Conditions: read-out: Mean EC50 ± SD, HINT, MDCK-SIAT1 cells, fox/MI/22, PA M61I.
Test [7] deals with A/Cooper's hawk/Minnesota/22-012931-001/2022 (PA I38M). To be noted: read-out: Mean EC50 ± SD; IRINA; MDCK-SIAT1 cells; hawk/MN-1/22, PA I38M.
Test [8] concerns A/chicken/Pennsylvania/22-012092-010/2022 (PA A37T). Conditions: read-out: Mean EC50 ± SD; IRINA; MDCK-SIAT1 cells; chicken/PA-10/22, PA A37T.
In test [9] the test system is A/Cooper's hawk/Minnesota/22-012931-001/2022 (PA I38M). To be noted: read-out: Mean EC50 ± SD; HINT; MDCK-SIAT1 cells; hawk/MN-1/22, PA I38M.
In test [10] the test system is A/harbor seal/Maine/22-020983-002/2022 (PA A70V). Conditions: read-out: Mean EC50 ± SD; IRINA; MDCK-SIAT1 cells; seal/ME-2/22, PA A70V.

With `O=C1c2c(O)c(=O)ccn2N([C@@H]2c3ccccc3SCc3c2ccc(F)c3F)[C@@H]2COCCN12` [Baloxavir, baloxavir acid], the EC50 in test [1] is 3.15 nM; in test [2], 0.52 nM; in test [3] it was 0.86 nM; in test [4], 0.37 nM; in [5] it was 3.21 nM; in test [6], 0.8 nM. Also, the EC50 stood at 2.94 nM in test [7], 1.84 nM in test [8], 3.34 nM in test [9] and 0.49 nM in test [10].

Source of the values: PMC10508830 (Antiviral research, 2023).
